Data: patent US11111484B2, “Streptococcus bacteriophage lysins for detection and treatment of gram positive bacteria” (priority 2011, dated 2021)

Tests used:
[1] = test system: MRSA strains (Strain 245, 223, 926 and 932); assay: log kill comparison PlySs2 versus vancomycin; conditions: MHB, up to 6 hours; vancomycin 1 μg/ml
[2] = test system: MRSA strains (Strain 245, 223, 926 and 932); assay: MIC of MRSA strains used for log kill comparison; conditions: MRSA strains 245, 223, 926 and 932

B1: PlySs2: Streptococcus suis prophage lysin, SEQ ID NO:3; N-terminal CHAP domain and C-terminal SH3-type 5 domain (protein, listed as Streptococcus suis)
chain: MTTVNEALNNVRAQVGSGVSVGNGECYALASWYERMISPDATVGLGAGVGWVSGAIGDTISAKNIGSSYNWQANGWTVSTSGPFKAGQIVTLGATPGNPYGHVVIVEAVDGDRLTILEQNYGGKRYPVRNYYSAASYRQQVVHYITPPGTVAQSAPNLAGSRSYRETGTMTVTVDALNVRRAPNTSGEIVAVYKRGESFDYDTVIIDVNGYVWVSYIGGSGKRNYVATGATKDGKRFGNAWGTFK
log kill versus vancomycin [1]: rapid and effective kill with enhanced activity versus standard-of-care antibiotic vancomycin | MIC [2]: approx 32 μg/ml
